# Measured values from article PMC5613637.
# Key:
# Assay in all cases: purified protein
# Settings in all cases: 25.0 °C
# [1] = system: CCCCCCCC(=O)Oc1ccc([N+](=O)[O-])cc1
# [2] = system: COCCC(=O)OCOc1ccc2c(c1)Oc1cc(OCOC(=O)CCOC)ccc1C21OC(=O)c2ccccc21
# [3] = system: CCCC(=O)OCOc1ccc2c(c1)Oc1cc(OCOC(=O)CCC)ccc1C21OC(=O)c2ccccc21
# [4] = system: CCCCC(=O)OCOc1ccc2c(c1)Oc1cc(OCOC(=O)CCCC)ccc1C21OC(=O)c2ccccc21
# [5] = system: O=C1OC2(c3ccc(OCOC(=O)C4CCC4)cc3Oc3cc(OCOC(=O)C4CCC4)ccc32)c2ccccc21
# [6] = system: CCCCCC(=O)OCOc1ccc2c(c1)Oc1cc(OCOC(=O)CCCCC)ccc1C21OC(=O)c2ccccc21
# [7] = system: O=C1OC2(c3ccc(OCOC(=O)C4CCCCC4)cc3Oc3cc(OCOC(=O)C4CCCCC4)ccc32)c2ccccc21
# [8] = system: O=C(CC(F)(F)F)OCOc1ccc2c(c1)Oc1cc(OCOC(=O)CC(F)(F)F)ccc1C21OC(=O)c2ccccc21
# [9] = system: O=C(OCOc1ccc2c(c1)Oc1cc(OCOC(=O)c3ccco3)ccc1C21OC(=O)c2ccccc21)c1ccco1
# [10] = system: CC(=O)OCOc1ccc2c(c1)Oc1cc(OCOC(C)=O)ccc1C21OC(=O)c2ccccc21
# [11] = system: CC(C)(C)C(=O)OCOc1ccc2c(c1)Oc1cc(OCOC(=O)C(C)(C)C)ccc1C21OC(=O)c2ccccc21
# [12] = system: CC(=O)Oc1ccc([N+](=O)[O-])cc1
# [13] = system: O=C1OC2(c3ccc(OCOC(=O)C4CCCC4)cc3Oc3cc(OCOC(=O)C4CCCC4)ccc32)c2ccccc21
# [14] = system: O=C(OCOc1ccc2c(c1)Oc1cc(OCOC(=O)c3ccccc3)ccc1C21OC(=O)c2ccccc21)c1ccccc1
# [15] = system: C=C(C)C(=O)OCOc1ccc2c(c1)Oc1cc(OCOC(=O)C(=C)C)ccc1C21OC(=O)c2ccccc21
# [16] = system: COCC(=O)OCOc1ccc2c(c1)Oc1cc(OCOC(=O)COC)ccc1C21OC(=O)c2ccccc21
# [17] = system: CCCCCCCCCCCC(=O)Oc1ccc([N+](=O)[O-])cc1
# [18] = system: CCCC(=O)Oc1ccc([N+](=O)[O-])cc1
# [19] = system: CCC(=O)OCOc1ccc2c(c1)Oc1cc(OCOC(=O)CC)ccc1C21OC(=O)c2ccccc21
substance,measurement,setting,value
FTT0941c (Francisella tularensis subsp. tularensis SCHU S4),Km,[1],240 ± 150 µM
same,kcat/Km,[1],3400 M⁻¹ s⁻¹
same,Km,[2],8.3 ± 1.4 µM
same,kcat/Km,[2],340 M⁻¹ s⁻¹
same,Km,[3],2.2 ± 0.4 µM
same,kcat/Km,[3],400 M⁻¹ s⁻¹
same,Km,[4],1.2 ± 0.1 µM
same,kcat/Km,[4],180 M⁻¹ s⁻¹
same,Km,[5],0.38 ± 0.06 µM
same,kcat/Km,[5],140 M⁻¹ s⁻¹
same,Km,[6],0.42 ± 0.10 µM
same,kcat/Km,[6],120 M⁻¹ s⁻¹
same,Km,[7],17 ± 2 µM
same,kcat/Km,[7],530 M⁻¹ s⁻¹
same,Km,[8],780 ± 40 µM
same,kcat/Km,[8],150 M⁻¹ s⁻¹
same,Km,[9],5.9 ± 2.0 µM
same,kcat/Km,[9],160 M⁻¹ s⁻¹
same,Km,[10],1.1 ± 0.5 µM
same,kcat/Km,[10],370 M⁻¹ s⁻¹
same,Km,[11],0.48 ± 0.04 µM
same,kcat/Km,[11],26 M⁻¹ s⁻¹
same,Km,[12],920 ± 220 µM
same,kcat/Km,[12],5000 M⁻¹ s⁻¹
same,Km,[13],4.2 ± 0.4 µM
same,kcat/Km,[13],180 M⁻¹ s⁻¹
same,Km,[14],1.1 ± 0.3 µM
same,kcat/Km,[14],380 M⁻¹ s⁻¹
same,Km,[15],0.48 ± 0.05 µM
same,kcat/Km,[15],130 M⁻¹ s⁻¹
same,Km,[16],83 ± 16 µM
same,kcat/Km,[16],50 M⁻¹ s⁻¹
same,Km,[17],1800 ± 600 µM
same,kcat/Km,[17],230 M⁻¹ s⁻¹
same,Km,[18],4000 ± 1900 µM
same,kcat/Km,[18],1900 M⁻¹ s⁻¹
same,Km,[19],2.7 ± 0.7 µM
same,kcat/Km,[19],250 M⁻¹ s⁻¹
